The chains behind the UniProt entries cited, without tags or fusion partners. Where a name states a change or a piece, a line headed by the entry shows the natural chain unless it says otherwise.
UniProt Q8CJ61: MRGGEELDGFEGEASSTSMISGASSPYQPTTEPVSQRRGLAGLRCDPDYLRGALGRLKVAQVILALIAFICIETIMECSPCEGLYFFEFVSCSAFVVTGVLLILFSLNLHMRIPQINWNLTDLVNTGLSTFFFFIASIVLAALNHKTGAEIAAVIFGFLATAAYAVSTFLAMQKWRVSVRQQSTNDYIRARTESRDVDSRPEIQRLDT

According to patent publication US20250313900A1, “COMPOSITIONS AND THERAPEUTIC AGENTS FOR MODULATING INFLAMMATORY RESPONSES ON BOTH TUMOR AND IMMUNE CELLS” (THE METHODIST HOSPITAL, priority 2022, published 2025):

Experiments:
IL-6 = IL-6 production (compound screening); format: cell-based
[1] = tested on: NF-kB promoter activity in LLC cells; assay: NF-kB promoter activity, CMTM4-expressing NF-kB/SEAP reporter stable LLC cells; format: cell-based, murine
[2] = tested on: NF-kB promoter activity in 4T1 cells; assay: NF-kB promoter activity, CMTM4-expressing NF-kB/SEAP reporter stable 4T1 cells; format: cell-based, murine; details: 4T1 reporter cells
glycolysis = assay: Test glycolysis (compound screening); format: cell-based
p-Akt/p-mTOR = p-Akt/p-mTOR (compound screening); format: cell-based
CMTM4 = CMTM4 (Mus musculus, UniProt Q8CJ61); assay: CMTM4 level (compound screening); format: cell-based
MHC II = MHC II assay by high-throughput flow cytometry (compound screening); format: cell-based
G-CSF = assay: Inhibition of EGF-mediated G-CSF secretion from tumor cells; format: cell-based

Substance	IL-6 (%) (IL-6)	NF-kB (%)-LLC [1] [%]	NF-kB (%)-4T1 [2] [%]	Glycolysis (glycolysis)	p-Akt/p-mTOR (p-Akt/p-mTOR)	CMTM4 (CMTM4)	MHC II (%) (MHC II)	G-CSF (%) (G-CSF)
5-Methoxysterigmatocysin	−11.581	35.23	38.64	Inhibit	Decrease	No difference	–	–
Verrucarin A 9,10-epoxide	−10.1997	36.11	41.32	Inhibit	Decrease	No difference	280.2	−0.01129
